{
  "source": "paper PMC10384183",
  "about": "“Silver(I) and Copper(II) 1,10-Phenanthroline-5,6-dione Complexes as Promising Antivirulence Strategy against Leishmania: Focus on Gp63 (Leishmanolysin)” (Tropical Medicine and Infectious Disease, 2023)",
  "origin": "cited, not measured here",
  "test_system": "L. amazonensis amastigotes",
  "parameters": "method as in PMID 36678418",
  "conditions": "Leishmania amastigotes compared to THP-1 macrophage cells; cited from earlier work",
  "data": [
    {"smiles": "O=C1C(=O)c2cccnc2-c2ncccc21.O=C1C(=O)c2cccnc2-c2ncccc21.[Ag+].[O-][Cl+3]([O-])([O-])[O-]", "note": "[Ag-phendione, [Ag(phendione)2]ClO4]", "values": [
      {"measurement": "SI selectivity index", "value": 42.0}
    ]},
    {"smiles": "O.O.O.O.O=C1C(=O)c2cccnc2-c2ncccc21.O=C1C(=O)c2cccnc2-c2ncccc21.O=C1C(=O)c2cccnc2-c2ncccc21.[Cu+2].[O-][Cl+3]([O-])([O-])[O-].[O-][Cl+3]([O-])([O-])[O-]", "note": "[Cu-phendione, [Cu(phendione)3](ClO4)2.4H2O]", "values": [
      {"measurement": "SI selectivity index", "value": 43.4}
    ]}
  ]
}
